Pooled drug test results. Numbers come from NIAID ChemDB, via PubChem.

Common to all: host cell toxicity; cell line: MDCK; read-out: CC50

Blank or dashed fields: not listed here. a–b is a range or a potency band. CCn: concentration that lowers growth or viability of the cells by n%. Rows are shuffled and stem from different studies.

SMILES | read by | result
Nc1ncnc2c1ncn2[C@@H]1C[C@@H](O)[C@@H](O)[C@H]1O |  | >200 µg/mL
O=c1[nH]cnc2c1ncn2[C@@H]1O[C@H](CO)[C@@H](O)[C@H]1F | MTT | >500 µM
Nc1ncc(/C=N/O)c(NCC2(CO)CCC2)n1 |  | 40–72 µM
CC(=O)c1cc(CC(=O)c2ccccc2)c(=O)n2c1sc1ccccc12 |  | 40 µg/mL
Cc1ccc(C(=S)NC[C@@]2(C)C[C@H](O)CC(C)(C)C2)cc1 |  | 40 µg/mL
C/C1=C\C=C\C2(C)C=C(CO)C(C)CC23OC([O-])C(C3=O)C(O)/C=C/C2(C)C=C(C=O)C(C)CC23OC([O-])C(C3=O)C(O)/C(C)=C/C=C/C2C=C(CO)C(C)CC23OC([O-])C(C3=O)C(O)/C=C/C2(C)C=C(C=O)C(C)CC23OC([O-])C(C3=O)C1O |  | >100 µg/mL
CC(=O)c1cc(NC(=O)c2ccccc2)c(=O)n2c1[nH]c1ccccc12 |  | 40 µg/mL
O=C(/C=C/c1ccc(O)c(O)c1)O[C@@H]1CC(O)(C(=O)O)C[C@@H](OC(=O)/C=C/c2ccc(O)c(O)c2)C1O |  | >400 µM
O=C(NCCN1CCC[C@@H]2CCCC[C@@H]21)c1cc(Cl)ccc1O |  | 43 µg/mL
COc1ccccc1CNC(=O)C1=Cc2ccncc2CC1 |  | >316 µM
Cc1ccc(C(=S)NC[C@@]2(C)C[C@@H](O)CC(C)(C)C2)c(C)c1 |  | 30 µg/mL
CCOc1nc2c(nc(N)n2[C@@H]2O[C@H](CO)[C@@H](O)[C@H]2F)c(=O)[nH]1 | MTT | >500 µM
CCOc1ncn(-c2ccc(NC(=S)NC3O[C@H](CO)[C@@H](O)[C@H](O)[C@H]3O)cc2)n1 |  | >200 µg/mL
COc1ncc2ncn([C@@H]3O[C@H](CO)[C@@H](O)[C@H]3F)c2n1 | MTT | >500 µM
[N-]=C=Nc1nncs1 |  | 0.3–1 µg/mL
Nc1nc(Cl)cc(NCC2(CO)COC2)n1 |  | >410 µM
CC1(C)CC[C@]2(C(=O)OC3O[C@H](CO)[C@@H](O)[C@H](O)[C@H]3O)CC[C@]3(C)C(=CCC4[C@@]5(C)CCC(O[C@@H]6O[C@H](C(=O)O)[C@@H](O)[C@H](O)[C@H]6O)C(C)(C)C5CC[C@]43C)[C@H]2C1 |  | 580 µM
Cc1ccc(C2NC(=O)C3NC(=O)C(c4cc(O)cc(O)c4)NC(=O)C(NC(=O)C(N)Cc4ccc(O)cc4)Cc4c[nH]c5cc(ccc45)-c4cc3cc(c4O)Oc3ccc(cc3)CC(C(=O)NC(C(=O)O)c3ccc(O)c(O)c3)NC2=O)cc1Cl |  | >200 µg/mL
COc1cc(OC)cc([C@H]2c3cc(/C=C/c4cc(O)cc(O)c4)ccc3O[C@@H]2c2ccc(O)cc2)c1 | MTT | 35.96 µg/mL
CCOC(=O)C1=C[C@@H](OC(CC)CC)[C@H](NC(C)=O)[C@@H](N)C1 | neutral red | >1000 µM
Nc1nc(Cl)cc(NCC2(CO)CC(CCc3ccccc3)C2)n1 |  | 0.81–0.92 µM
CCC(C)N1C2CCC23CC[C@H](NC(=O)c2cc(Cl)ccc2O)CC13 |  | 100 µg/mL
CC(=O)N[C@H]1[C@H]([C@H](OC(=O)NCCCCCCNC(=O)CN(CCN(CC(=O)O)CC(=O)NCCCCCCNC(=O)O[C@@H]([C@@H]2OC(C(=O)O)=C[C@H](N=C(N)N)[C@H]2NC(C)=O)[C@H](O)CO)CC(=O)O)[C@H](O)CO)OC(C(=O)O)=C[C@@H]1N=C(N)N |  | >0.1 µg/mL
CC(C)CS[C@@H]1C=C[C@H](n2cnc3c(N)ncnc32)C1 |  | 50 µg/mL
CCOc1ncn(-c2ccc(NC(=S)Nc3ncccn3)cc2)n1 |  | 8 µg/mL
Nc1nc2c(nc(N)n2[C@@H]2O[C@H](CO)[C@@H](O)[C@H]2F)c(=O)[nH]1 | MTT | >500 µM
N#Cc1cc(C#N)c2[nH]c3ccccc3n2c1=O |  | 77 µg/mL
Cc1cc(C)cc(C(=S)NC[C@@]2(C)C[C@H](O)CC(C)(C)C2)c1 |  | 18 µg/mL
CCOC(=O)c1cc(NC(=O)c2ccccc2)c(=O)n2c1[nH]c1ccccc12 |  | 40 µg/mL
CC#Cc1cn([C@@H]2O[C@H](COP(=O)(N[C@@H](C)C(=O)OC)Oc3ccccc3)[C@@H](O)[C@@H]2O)c(=O)[nH]c1=O |  | >500 µM
CC1(C)C[C@@H](O)C[C@](C)(CNC(=S)c2cccc([N+](=O)[O-])c2)C1 |  | 15 µg/mL
Nc1nc2c(=O)[nH]cnc2n1[C@@H]1O[C@H](CO)[C@@H](O)[C@H]1F | MTT | >500 µM
CCCOc1ncn(-c2ccc(NC(=S)Nc3cnccn3)cc2)n1 |  | 100 µg/mL
CC#Cc1cn([C@@H]2O[C@H](COP(=O)(O)Oc3ccc(OC)cc3)[C@@H](O)[C@@H]2O)c(=O)[nH]c1=O |  | >500 µM
Cc1ccc(O)c(C(=O)N[C@H]2CCC34CCC3N(Cc3ccccc3)C4C2)c1 |  | 100 µg/mL
CC1(C)C[C@H](O)C[C@](C)(CNC(=S)c2ccccc2)C1 |  | 50 µg/mL
N#Cc1cnc(N)nc1NCC1(CO)CC(CCc2ccccc2)C1 |  | 1.7–3 µM
CC#Cc1cn([C@@H]2O[C@H](COP(=O)(N[C@H](C(=O)OC)C(C)C)Oc3ccccc3)[C@@H](O)[C@@H]2O)c(=O)[nH]c1=O |  | >500 µM
C/C1=C\C=C\C2(C)C=C(CO[C@H]3O[C@H](CO)[C@H](O)[C@H](O)[C@H]3O)C(C)CC23OC([O-])C(C3=O)C(O)/C=C/C2(C)C=C(C=O)C(C)CC23OC([O-])C(C3=O)C(O)/C(C)=C/C=C/C2C=C(CO[C@H]3O[C@H](CO)[C@H](O)[C@H](O)[C@H]3O)C(C)CC23OC([O-])C(C3=O)C(O)/C=C/C2(C)C=C(C=O)C(C)CC23OC([O-])C(C3=O)C1O |  | >100 µg/mL
COS(=O)(=O)O.N=C(N)c1ccc2cc(OC(=O)c3ccc(N=C(N)N)cc3)ccc2c1 | MTT | 150 µg/mL
O=C(NCCCN1CCC[C@@H]2CCCC[C@@H]21)c1cc(Cl)ccc1O |  | 30 µg/mL
CCOC(=O)c1ccc(OC(=O)CCCCCN=C(N)N)cc1.COS(=O)(=O)O | MTT | 580 µg/mL
CC1(C)C[C@@H](O)C[C@](C)(CNC(=S)c2cccc(C#N)c2)C1 |  | 22 µg/mL
CCC(CC)[C@H](NC(C)=O)[C@@H]1C[C@@H](C(=O)O)C[C@H]1N=C(N)N | neutral red | >1000 µM
O=C(N[C@@H]1CCC23CCC2N(Cc2ccccc2)C3C1)c1cc(Cl)ccc1O |  | 100 µg/mL
CCCOc1ncn(-c2ccc(NC(=S)NC3O[C@H](CO)[C@@H](O)[C@H](O)[C@H]3O)cc2)n1 |  | >200 µg/mL
C/C1=C\C=C\C2(C)C=C(CO[C@H]3O[C@H](CO)[C@H](O)[C@H](O)[C@H]3O)C(C)CC23OC([O-])C(C3=O)C(O)/C=C/C2(C)C=C(CO)C(C)CC23OC([O-])C(C3=O)C(O)/C(C)=C/C=C/C2C=C(CO[C@H]3O[C@H](CO)[C@H](O)[C@H](O)[C@H]3O)C(C)CC23OC([O-])C(C3=O)C(O)/C=C/C2(C)C=C(CO)C(C)CC23OC([O-])C(C3=O)C1O |  | >100 µg/mL
O=C(NCCN1CCC[C@@H]2CCCC[C@H]21)c1cc(Cl)ccc1O |  | 40–45 µg/mL
CC(=O)N[C@H]1[C@H]([C@H](O)[C@H](O)CO)OC(C(=O)O)=C[C@@H]1N=C(N)N |  | >1000 µM
CCCOc1ncn(-c2ccc(NC(=S)Nc3ncccn3)cc2)n1 |  | 100 µg/mL
Cc1ccc(O)c(C(=O)N[C@H]2CCC34CCC3N(C(C)C)C4C2)c1 |  | 100 µg/mL
CC(=O)N[C@H]1[C@H]([C@H](O)[C@H](O)CO)OC(C(=O)O)=C[C@@H]1N=C(N)N | neutral red | >1000 µM
CCC(CC)O[C@@H]1C=C(C(=O)O)C[C@H](N)[C@H]1NC(C)=O | neutral red | >100 µM
CC#Cc1cn([C@@H]2O[C@H](COP(=O)(OCC)Oc3ccccc3)[C@@H](O)[C@@H]2O)c(=O)[nH]c1=O |  | >500 µM
CCOC(=O)c1cc(C(=O)O)c(=O)n2c1[nH]c1ccccc12 |  | 200 µg/mL
C/C(=C\CC/C(C)=C/Cc1cc(O)cc(C)c1O)CC/C=C(\C)CC[C@@H](C)C(C)(C)O |  | 8.1 µM
Cc1cc(NCCCCCCCCNc2cc(C)nc3cc(N(C)C)ccc23)c2ccc(N(C)C)cc2n1 | MTT | >500 µg/mL